Laboratory results taken from patent publication US11370770B2, “3-arylindazoles as selective MEK4 inhibitors” (priority 2019, dated 2022).

Test system: PC3M cells
Experiment: Cell viability, trypan blue exclusion
Type: cell-based
Conditions: PC3M cells treated for 3 days

| Structure (SMILES) | toxicity, proliferation and viability |
| --- | --- |
| Fc1ccc2c(-c3ccc4c(c3)OCO4)n[nH]c2c1 [Compound 6ee, 3-(2H-1,3-benzodioxol-5-yl)-6-fluoro-2H-indazole] | less toxicity |
| O=C(O)c1ccc(-c2n[nH]c3cc(F)ccc23)cc1 [Compound 6ff, 4-(6-fluoro-2H-indazol-3-yl)benzoic Acid] | less toxicity |
